Assay results as given in patent US20260382574A1, “CRYSTAL OF SPIRO COMPOUND AND PREPARATION METHOD THEREFOR” (published 2026).

Experiment: Body weight / toxicity in infected K18-hACE2 transgenic mice
Settings: 50 and 200 mg/kg + ritonavir, 4 days after infection; model group reduced by about 10%

**Q.** For `CC(C)(C)[C@H](NC(=O)C(F)(F)F)C(=O)N1CC2(C[C@H]1C(=O)N[C@H](C#N)C[C@@H]1CCNC1=O)SCCS2`, which body weight is on record?
**A.** not significantly reduced
